Pooled drug test results. Numbers come from NIAID ChemDB, via PubChem.

Shared fields: tests in culture; agent: Mycobacterium tuberculosis

An empty or dashed field is not shown.

structure,read by,changes,strain,setting,cells,tested at,measure,value
Cc1ccc(/C(CN2CCN(c3cc4c(cc3F)c(=O)c(C(=O)O)cn4C3CC3)CC2)=N\O)cc1,,,H37Rv,,,,EC50,>6.25 µg/mL
Cc1ccc(NP2(N3CC3)=NP(Nc3ccc(C)cc3)(N3CC3)=NP(N3CC3)(N3CC3)=N2)cc1,BACTEC,,H37Rv,,,128 µg/mL,inhibition,100%
COc1cccc(CSc2ncnc3nc[nH]c23)c1,,,H37Rv,,,,MIC90,>6.25 µg/mL
CC(=O)c1c(C)n([O-])c2ccc(Cl)cc2[n+]1=O,BACTEC,,H37Rv,,VERO,6.25 µg/mL,inhibition,100%
CCCc1c2c([nH]c(=O)c1C)C(=O)c1[nH]c(=O)c(C)c(CCC)c1C2=O,resazurin / fluorescence,Cycloserine-resistant,H37Rv,,,,MIC90,0.14 µg/mL
CCCCCSc1ncnc2nc[nH]c12,,,H37Rv,,,6.25 µg/mL,inhibition,0%
CCn1cc(C(=O)O)c(=O)c2cc(F)c(N3CCN(CC(=O)c4ccccc4)CC3)nc21,,,H37Rv,,,,EC50,<6.25 µg/mL
O=C1NC(=S)N/C1=C/c1cccc(F)c1,BACTEC,,H37Rv,,,,EC50,<6.25 µg/mL
Cc1ccc(NC(=O)c2cc(S(=O)(=O)Nc3nc4ncccc4[nH]3)c(SSc3cc(Cl)c(C(=O)Nc4ccc(C)cc4)cc3S(=O)(=O)Nc3nc4ncccc4[nH]3)cc2Cl)cc1,resazurin,,H37Rv,,,,MIC bound,>6.25 µg/mL
C[C@H]1COc2c(N3CCN(C)CC3)c(F)cc3c(=O)c(C(=O)O)cn1c23,,,Isolate 10,,,,MIC,4 µg/mL
C=CCN1C(=O)/C(=C\c2cccnc2)S/C1=N\c1nc2ccccc2s1,,,H37Rv,,,,MIC,≥25 µg/mL
CC(C)N=c1cc2n(-c3ccc(Cl)cc3)c3ccccc3nc-2cc1Nc1ccc(Cl)cc1,,,90-0233 (isoniazid streptomycin-resistant),,,,MIC,0.4 µg/mL
C=CCN1C(=O)/C(=C/c2ccc(OC)c(O)c2)S/C1=N\c1nc2ccccc2s1,,,H37Rv,,,,MIC,≥25 µg/mL
CO[C@H]1C=CC2=CCN3CCC4=C(CC(=O)OC4)[C@]23C1.Cl,BACTEC,,H37Rv,,,,MIC,≥128 µg/mL
CCn1cc(C(=O)O)c(=O)c2cc(F)c(N3CCN(CC(=O)c4ccc(Br)cc4)CC3)nc21,,,H37Rv,,,,MIC,>6.25 µg/mL
O=C1C=C([C@@H]2O[C@H](CO)[C@@H](O)[C@H]2O)C(=O)N1,BACTEC,,H37Rv,,,,MIC bound,>12.8 µg/mL
O=C1NC(=S)N/C1=C/c1cc(F)cc(F)c1,BACTEC,,H37Rv,,,,EC50,<6.25 µg/mL
CSC1=Nc2cc3c(cc2C(=O)N2CC(O)CC12)OCO3,BACTEC,,H37Rv,,,12.5 µg/mL,inhibition,-4%
CCOc1ccc(-n2c(O)c(/C=C3\C=CC(=O)c4ncccc43)s/c2=N\c2ccccn2)cc1,,,H37Rv,,,,MIC,≥25 µg/mL
COc1ccc(/C=C2/NC(=S)NC2=O)cc1OC,BACTEC,,H37Rv,,,,EC50,>6.25 µg/mL
CC(=O)Nc1ccc(S(=O)(=O)N/N=C/c2cc(Cl)ccc2O)cc1,BACTEC,,H37Rv,,,,MIC,≥12.5 µg/mL
O=C1NC(=S)N/C1=C/c1ccc(F)cc1,BACTEC,,H37Rv,,,,EC50,<6.25 µg/mL
Cc1ccc2[nH]c3c(C)c4cc[n+](C)cc4c(C)c3c2c1,resazurin / fluorescence,,,,,,MIC,1 µg/mL
Cc1cc2c(cc1C)[n+](=O)c(C(=O)CBr)c(CBr)n2[O-],BACTEC,,H37Rv,,,6.25 µg/mL,inhibition,0%
Cc1ccnc(NC(=O)NS(=O)(=O)c2cc(NC(=O)CCl)ccc2C(=O)OC(C)C)n1,,,H37Rv,,,,MIC,>80 µg/mL
CO[C@H]1/C=C/O[C@@]2(C)Oc3c(C)c(O)c4c(=O)c(c5oc6cc(N7CCN(CC(C)C)CC7)cc(=O)c6nc5c4c3=C2O)NC(=O)/C(C)=C\C=C\[C@H](C)[C@H](O)[C@@H](C)[C@@H](O)[C@@H](C)[C@H](OC(C)=O)[C@@H]1C,,,TN800,,,,MIC,16 µg/mL
NC(=O)c1cnccn1,,,BDDIS20 (niacin-positive),,,,MIC,>2048 µg/mL
Cc1ccc(CSc2nc(=O)[nH]c3nc[nH]c23)cc1,,,H37Rv,,,6.25 µg/mL,inhibition,0%
COc1cc2c3c(c1OC)-c1cc4c(cc1CC3N(C=O)CC2)OCO4,resazurin,,H37RvEr,,,,MIC,>50 µg/mL
CC(=O)c1c(CN2CCN(c3ccc(Cl)cc3)CC2)n([O-])c2cc(C)c(C)cc2[n+]1=O,BACTEC,,H37Rv,,,6.25 µg/mL,inhibition,0%
CCOc1ccc(NC(=O)C(N=Nc2ccc(S(=O)(=O)NC3ONC(C)C3C)cc2)C(C)=O)cc1,BACTEC,,H37Rv,,,12.5 µg/mL,inhibition,4%
c1c[nH]c(Sc2ncnc3nc[nH]c23)n1,,,H37Rv,,,6.25 µg/mL,inhibition,32%
O=C1NC(=S)N/C1=C/c1cccc(Cl)c1Cl,BACTEC,,H37Rv,,,,EC50,>6.25 µg/mL
N[C@H]1CCN(c2nc3c(cc2F)c(=O)c(C(=O)O)cn3C2CC2)C1,,,H37Rv,inside macrophages,Macrophages,,EC50,<0.5 µg/mL
CN[C@@H]1[C@H](O[C@H]2[C@H](O[C@H]3[C@H](O)[C@@H](O)[C@H](N=C(N)N)[C@@H](O)[C@@H]3N=C(N)N)O[C@@H](C)[C@]2(O)C=O)O[C@@H](CO)[C@H](O)[C@H]1O,,,Isolate 4,,,,MIC,8 µg/mL
CC1COc2c(N3CCN(C)CC3)c(F)cc3c(=O)c(C(=O)O)cn1c23,,,90-0201 (DRUG-SUS),,,,MIC,0.5 µg/mL
CSc1c(C)n([O-])c2cc(Cl)c(Cl)cc2[n+]1=O,BACTEC,,H37Rv,,,6.25 µg/mL,inhibition,100%
CCn1cc(C(=O)O)c(=O)c2cc(F)c(N3CCN(C/C(=N/O)c4ccccc4)CC3)cc21,,,H37Rv,,,,EC50,>6.25 µg/mL
Cc1c(C(=O)c2ccccc2)[n+](=O)c2cc(Cl)ccc2n1[O-],BACTEC,,H37Rv,,VERO,6.25 µg/mL,inhibition,100%
O=c1cc(-c2ccccc2)c2cc(Cl)ccc2o1,resazurin,Cycloserine-resistant,,,,,MIC90,>100 µg/mL
CCCc1cc(O)cc(O)c1/C=C1\S/C(=N\c2ccccn2)N(c2ccc(OCC)cc2)C1=O,,,H37Rv,,,,MIC,≥25 µg/mL
O=C1NC(=S)N/C1=C/c1cccc(OCc2ccccc2)c1,BACTEC,,H37Rv,,,,EC50,<6.25 µg/mL
NNC(=O)c1ccncc1,resazurin / fluorescence,MDR,JAL 2278,,,,MIC,>100 µg/mL
CO[C@H]1/C=C/O[C@@]2(C)Oc3c(C)c(O)c4c(O)c(c5c(c4c3C2=O)NC2(CCN(CC(C)C)CC2)N=5)=NC(=O)/C(C)=C\C=C\[C@H](C)[C@H](O)[C@@H](C)[C@@H](O)[C@@H](C)[C@H](OC(C)=O)[C@@H]1C,,,Strain 6 (RIF-resistant),,,,MIC,5 µg/mL
CCOc1ccc(N2C(=O)/C(=C/c3ccc(N(C)C)cc3)S/C2=N\c2ccccn2)cc1,,,H37Rv,,,,MIC,≥25 µg/mL
CO[C@H]1/C=C/O[C@@]2(C)Oc3c(C)c(O)c4c(O)c(c(/C=N/N5CCN(C)CC5)c(O)c4c3C2=O)NC(=O)/C(C)=C\C=C\[C@H](C)[C@H](O)[C@@H](C)[C@@H](O)[C@@H](C)[C@H](OC(C)=O)[C@@H]1C,,,Isolate 7,,,,MIC,2 µg/mL
CCCCCCCCOCC(O)CNCCNCC(O)COCCCCCCCC,,,H37Rv,,,6.25 µg/mL,inhibition,98%
C=CCN1C(=O)/C(=C/c2ccccc2O)S/C1=N\c1nc2ccccc2s1,,,H37Rv,,,,MIC,≥25 µg/mL
Cc1c2ccncc2c(C)c2c1[nH]c1ccc(Br)cc12,resazurin / fluorescence,,H37Rv,,,,MIC,>100 µM
COC(=O)c1ccc(NC(=O)C(Cl)Cl)cc1S(=O)(=O)NC(=O)Nc1nccc(C)n1,,,H37Rv,,,,MIC,20 µg/mL
O[C@H](c1cc(C(F)(F)F)nc2c(C(F)(F)F)cccc12)[C@H]1CCCCN1,,,H37Rv,,,,MIC,10 µg/mL
Cc1ccc(C(=O)CN2CCN(c3cc4c(cc3F)c(=O)c(C(=O)O)cn4C3CC3)CC2)cc1,,,H37Rv,,VERO,,MIC,1.56 µg/mL
CCOc1ccc2ccc3cccnc3c2n1,BACTEC,,H37Rv,,,12.5 µg/mL,inhibition,20%
COc1cc(OC)c2cc([N+](=O)[O-])c3ccc(=O)oc3c2c1,resazurin,,H37Rv,,,,MIC,25 µg/mL
Nc1nc(SCc2ccccc2)sc1C(=O)N(Cc1ccccc1)Cc1ccccc1,resazurin,,H37Rv,,,,MIC bound,>6.25 µg/mL
O=C1NC(=S)N/C1=C/c1ccc(-c2ccccc2)cc1,BACTEC,,H37Rv,,,6.25 µg/mL,inhibition,97%
C/C=C/C/C=C/CCC(=O)[C@H]1O[C@H]1C(N)=O,,,92-0492 (MDR),,,,MIC,10 µg/mL
Cc1ccc(Nc2ccc(O)c3c2C(=O)c2ccccc2C3=O)cc1,BACTEC,,H37Rv,,,,MIC bound,>12.5 µg/mL
COC(=O)c1ccc(Br)cc1S(=O)(=O)NC(=O)Nc1nccc(OC)n1,,,H37Rv,,,,MIC,>80 µg/mL
CCOc1ccc(N2C(=O)/C(=C/c3ccc4c(c3)OCO4)S/C2=N\c2ccccn2)cc1,,,H37Rv,,,,MIC,≥25 µg/mL
CC(=O)c1c(O)c(C)c(O)c2c1OC1=Cc3c(c(C)nn3C)C(=O)C12C,BACTEC,,H37Rv,,,,MIC bound,>12.5 µg/mL
CCCCCCCCCCCNCCN[C@H]1C[C@H]2C[C@@H]([C@@H]1C)C2(C)C,,,,,,,MIC,50 µM
O=C(O)/C=C/c1ccccc1,,,90-0145 (DRUG-SUS),,,,MIC,200 µg/mL
CN[C@@H]1[C@H](O)[C@H](NC)[C@H]2O[C@@]3(O)C(=O)C[C@@H](C)O[C@H]3O[C@@H]2[C@H]1O,BACTEC,,H37Rv,,,,MIC bound,>12.5 µg/mL
Cc1ccc2c(c1)[n+](=O)c(C(=O)c1ccccc1)c(C)n2[O-],BACTEC,,H37Rv,,VERO,,MIC,6.25 µg/mL
Cc1cc(=O)[nH]c2c1C(=O)c1c(CCCCCCCC(C)C)cc(=O)[nH]c1C2=O,resazurin / fluorescence,,H37Rv,,,,MIC90,0.07 µg/mL
Cc1ccc(C)c(/C=C2/NC(=S)NC2=O)c1,BACTEC,,H37Rv,,,6.25 µg/mL,inhibition,52%
CC1(C)C(=O)N2c3ccccc3C3(CC(N4C(=O)c5ccccc5C4=O)C(=O)O3)C2N1C(=O)OCc1ccccc1,BACTEC,,H37Rv,,,,MIC bound,>12.5 µg/mL
CC(CNCCc1ccccc1F)NCCC1=CCCCC1,,,,,,,MIC,50 µM
Cc1ccc(C)c(Sc2ncccn2)c1,,,H37Rv,,,,MIC90,>6.25 µg/mL
CC(C)=CCC/C(C)=C/CNCCNCc1cccc2ccccc12,,,,,,,MIC,50 µM
COc1ccnc(NC(=O)NS(=O)(=O)c2cc(NC(=O)CCl)ccc2C(=O)OC(C)C)n1,,,H37Rv,,,,MIC,>80 µg/mL
CCOC(=O)c1nc2cc(C)c(C)cc2[nH]c1=O,BACTEC,,H37Rv,,,12.5 µg/mL,inhibition,38%
C[C@@H]1CN(c2c(F)c(N)c3c(=O)c(C(=O)O)cn(C4CC4)c3c2F)C[C@H](C)N1,,,25 strains,,,,MIC50,0.1 µg/mL
O=C(O)CCc1nc(-c2ccccc2-n2cccc2)no1,BACTEC,,H37Rv,,,,MIC bound,>6.25 µg/mL
COc1cccc(CSc2ccncc2)c1,,,H37Ra,,,,MIC,>12.8 µg/mL
CSC(=S)N(C)c1nc(=[N+](C)C)ss1.O=S(=O)([O-])F,BACTEC,,H37Rv,,,128 µg/mL,inhibition,67%
Cc1ccc2[nH]c3c(C)c4ccncc4c(C)c3c2c1,resazurin / fluorescence,XDR,MYC 431,,,,MIC,>100 µM
CN[C@@H]1[C@H](O[C@H]2[C@H](O[C@H]3[C@H](O)[C@@H](O)[C@H](N=C(N)N)[C@@H](O)[C@@H]3N=C(N)N)O[C@@H](C)[C@]2(O)C=O)O[C@@H](CO)[C@H](O)[C@H]1O,resazurin / fluorescence,Kanamycin-resistant,H37Rv,,,,MIC90,1.2 µg/mL
CCC(N)C(=O)NC(CO)C(=O)O,BACTEC,,H37Rv,,,,MIC bound,>12.8 µg/mL
CC1(C)[C@H]2CC[C@@H](CNCCN[C@H]3C[C@H]4CC[C@]3(C)C4(C)C)[C@@H]1C2,,,,,,,MIC,3.13 µM

Repeating the final 10 entries:

structure | read by | changes | strain | setting | cells | tested at | measure | value
COc1ccnc(NC(=O)NS(=O)(=O)c2cc(NC(=O)CCl)ccc2C(=O)OC(C)C)n1 |  |  | H37Rv |  |  |  | MIC | >80 µg/mL
CCOC(=O)c1nc2cc(C)c(C)cc2[nH]c1=O | BACTEC |  | H37Rv |  |  | 12.5 µg/mL | inhibition | 38%
C[C@@H]1CN(c2c(F)c(N)c3c(=O)c(C(=O)O)cn(C4CC4)c3c2F)C[C@H](C)N1 |  |  | 25 strains |  |  |  | MIC50 | 0.1 µg/mL
O=C(O)CCc1nc(-c2ccccc2-n2cccc2)no1 | BACTEC |  | H37Rv |  |  |  | MIC bound | >6.25 µg/mL
COc1cccc(CSc2ccncc2)c1 |  |  | H37Ra |  |  |  | MIC | >12.8 µg/mL
CSC(=S)N(C)c1nc(=[N+](C)C)ss1.O=S(=O)([O-])F | BACTEC |  | H37Rv |  |  | 128 µg/mL | inhibition | 67%
Cc1ccc2[nH]c3c(C)c4ccncc4c(C)c3c2c1 | resazurin / fluorescence | XDR | MYC 431 |  |  |  | MIC | >100 µM
CN[C@@H]1[C@H](O[C@H]2[C@H](O[C@H]3[C@H](O)[C@@H](O)[C@H](N=C(N)N)[C@@H](O)[C@@H]3N=C(N)N)O[C@@H](C)[C@]2(O)C=O)O[C@@H](CO)[C@H](O)[C@H]1O | resazurin / fluorescence | Kanamycin-resistant | H37Rv |  |  |  | MIC90 | 1.2 µg/mL
CCC(N)C(=O)NC(CO)C(=O)O | BACTEC |  | H37Rv |  |  |  | MIC bound | >12.8 µg/mL
CC1(C)[C@H]2CC[C@@H](CNCCN[C@H]3C[C@H]4CC[C@]3(C)C4(C)C)[C@@H]1C2 |  |  |  |  |  |  | MIC | 3.13 µM

Lines come from different laboratories, so protocols vary. MIC50, MIC90 and the like: level of inhibition, or share of isolates inhibited. MIC bound: limit read from a one-dose screen. Percent inhibition refers to the dose given; in toxicity tests it is the harm to the cells. ECn: concentration that inhibits the pathogen or its effect by n%.